Pooled drug test results. Numbers come from NIAID ChemDB, via PubChem.

All rows: growth or infection tests; organism: Herpes simplex virus 1

Rows are shuffled and stem from different studies. ECn is the concentration giving n% inhibition of infection, replication or growth. Blank or dashed fields: not listed here.

compound | read by | cells | read-out | strain | result
CC(=O)NC[C@H]1O[C@@H](n2cc(I)c(=O)[nH]c2=O)C[C@@H]1O | plaque count | BHK | EC50 |  | >11 µM
O=C(O)CP(=O)(O)OC[C@H]1O[C@@H](n2cc(CCCl)c(=O)[nH]c2=O)C[C@@H]1O | cytopathic effect | VERO | EC50 | TK- | >23.2 µM
Nc1nc(N)c2ncn(CC/C=C/P(=O)(O)O)c2n1 | cytopathic effect | MRC-5 | EC50 | SC16 | >300 µM
O=c1[nH]c(=O)n(COCCO)cc1C#Cc1ccccc1 | plaque count | VERO | EC90 | F | >100 µM
CCOC(=O)CP(=O)(OC)OC[C@H]1O[C@@H](n2cc(CCCl)c(=O)[nH]c2=O)C[C@@H]1O | cytopathic effect | VERO | EC50 | TK- | >66 µM
CS(=O)(=O)NC[C@H]1O[C@@H](n2cc(I)c(=O)[nH]c2=O)C[C@@H]1O | plaque count | BHK | EC50 |  | >0.2 µM
O=C(O)CP(=O)(O)O | cytopathic effect | VERO | EC50 | BRAND | >71.4 µM
CC(=O)NC[C@H]1O[C@@H](n2cc(I)c(=O)[nH]c2=O)C[C@@H]1OC(C)=O | plaque count | BHK | EC50 |  | >1 µM
Nc1nc(N)c2ncn(C[C@H]3CC[C@@H](CO)C3)c2n1 | cytopathic effect | E6SM | EC50 | KOS | >400 µg/mL
Nc1nc2c(ncn2[C@H]2O[C@@H](CO)C[C@@H]2F)c(=O)[nH]1 |  | VERO | EC50 |  | >100 µM
C[C@H](N)C(=O)N[C@@H](CNC(=O)/C=C/C(N)=O)C(=O)O | cytopathic effect | HeLa | EC50 | KOS | >200 µg/mL
CCCCCCCCCC(=O)O[C@H]1C[C@H](n2cc(/C=C/Br)c(=O)[nH]c2=O)O[C@@H]1COP1(=O)OCc2cccc(C)c2O1 | plaque count | VERO | EC50 | B2006 (TK-) | >128 µg/mL
C[C@@]12CC[C@]3(C1)C(C[C@@H](OC(=O)c1ccccc1)[C@H]1[C@](C)(C(=O)O)CCC[C@@]13C)C[C@@H]2O | plaque count | HeLa | EC50 | F | 29.5 µM
O=c1[nH]cnc2c1ncn2[C@@H]1O[C@@H](CO)C[C@@H]1F |  | VERO | EC50 |  | >100 µM
CC(C)(C)c1cccc2c1OP(=O)(OC[C@H]1O[C@@H](n3cc(/C=C/Br)c(=O)[nH]c3=O)C[C@@H]1O)OC2 | plaque count | VERO | EC50 | B2006 (TK-) | >128 µg/mL
C[C@@]12CC[C@]3(C1)C(C[C@@H](OC(=O)c1ccccc1)[C@H]1[C@@](CO)(C(=O)O)CCC[C@@]13C)C[C@@H]2O | plaque count | HeLa | EC50 | F | 1.7 µM
CCCCCc1ccc(C#Cc2cn(C/C=C/C(O)CO)c(=O)[nH]c2=O)cc1 | plaque count | VERO | EC90 | F | 16.2 µM
COC(=O)[C@]1(C)CCC[C@@]2(C)[C@H]1[C@H](O)CC1C[C@@H](O)[C@]3(C)CC[C@]12C3 | plaque count | HeLa | EC50 | F | 31.4 µM
CC(=O)CCC(=O)O[C@H]1C[C@H](n2cc(/C=C/Br)c(=O)[nH]c2=O)O[C@@H]1COP1(=O)OCc2ccccc2O1 | plaque count | VERO | EC50 | KUPKA (TK+) | 0.62 µg/mL
C1CCN2C[C@H]3C[C@H](CN4CCCC[C@@H]34)[C@H]2C1 | cytopathic effect | HeLa | EC50 | KOS | >200 µg/mL
CCCCCc1ccc(C#Cc2cn(COCCO)c(=O)[nH]c2=O)cc1 | plaque count | VERO | EC90 | F | >10 µM
O=C(O)P(=O)(O)O | plaque count | GMK | EC50 |  | >12.5 µg/mL
NC(=O)c1[nH]nc([C@@H]2O[C@H](CO)[C@@H](O)[C@H]2O)c1O | cytopathic effect | HeLa | EC50 | KOS | >200 µg/mL
Nc1nc(Cl)c2nnn(C[C@H]3CC[C@@H](CO)C3)c2n1 | cytopathic effect | E6SM | EC50 | B2006 (TK-) | >200 µg/mL
Cc1cccc2c1OP(=O)(OC[C@H]1O[C@@H](n3cc(/C=C/Br)c(=O)[nH]c3=O)C[C@@H]1OC(=O)[C@@H](N)CC(C)C)OC2 | plaque count | VERO | EC50 | KUPKA (TK+) | 0.72 µg/mL
CCCCCCCCC#Cc1cn(COCCO)c(=O)[nH]c1=O | plaque count | VERO | EC50 | F | >100 µM
NC(=O)c1c[se]c([C@@H]2O[C@H](CO)[C@@H](O)[C@H]2O)n1 | cytopathic effect | HeLa | EC50 | KOS | 2 µg/mL
CCCCCCCCc1cc2cn(COCCO)c(=O)nc2o1 | plaque count | VERO | EC90 | F | >100 µM
O=C(NC[C@H]1O[C@@H](n2cc(I)c(=O)[nH]c2=O)C[C@@H]1O)c1ccccc1 | plaque count | BHK | EC50 |  | >0.04 µM
COc1cc(C2C3(O)C(O)C4CC2(O)C(O)(C(=O)O4)C3C(=O)c2ccccc2)oc(=O)c1 | cytopathic effect | HeLa | EC50 | KOS | >100 µg/mL
Nc1nc(=O)n([C@H]2O[C@@H](CO)C[C@H]2F)cc1F |  | VERO | EC50 |  | >100 µM
O=c1[nH]c(=O)n([C@H]2C[C@H](O)[C@@H](CO)O2)cc1/C=C/Br | cytopathic effect | E6SM | EC50 | KOS | 0.04 µg/mL
CN[C@@H]1[C@@H](O[C@H]2O[C@H](CO)[C@@H](N)[C@H](O)[C@H]2O)O[C@H]2C[C@@H](N)C(O[C@H]3[C@H](O)[C@@H](O)[C@H](N)C[C@@H]3N)O[C@@H]2[C@@H]1O | cytopathic effect | HeLa | EC50 | KOS | >200 µg/mL
Nc1ccn(OC(/C=C/P(=O)(O)O)CO)c(=O)n1 | cytopathic effect | MRC-5 | EC50 | SC16 | >300 µM
CC(C)CC1NC(=O)C(NC(=O)c2ncccc2O)C(C)OC(=O)C(c2ccccc2)N(C)C(=O)C(C)NC(=O)C(C(C)C(C)C)N(C)C(=O)CN(C)C(=O)C2CC(O)CN2C1=O | cytopathic effect | HeLa | EC50 | KOS | >200 µg/mL
C=C(/C=C/P(=O)(O)O)Cn1cnc2c(=O)[nH]c(N)nc21 | cytopathic effect | MRC-5 | EC50 | SC16 | >300 µM
CC(C)CC(=O)NC[C@H]1O[C@@H](n2cc(I)c(=O)[nH]c2=O)C[C@@H]1OC(=O)CC(C)C | plaque count | BHK | EC50 |  | >0.2 µM
CCOC(=O)P(=O)(OCCOCn1cnc2c(=O)[nH]c(N)nc21)OC(C)C | cytopathic effect | VERO | EC50 | L2 | 0.37 µM
O=C1OCC2OC(O)C(O)C(O)C2OC(=O)c2cc(O)c(O)c(O)c2-c2c(O)c(O)c3oc(=O)c4c(c(O)c(O)c5oc(=O)c2c3c54)-c2c1cc(O)c(O)c2O | plaque count | A549 | EC50 |  | 21.33 µM
CC(C)C(=O)NC[C@H]1O[C@@H](n2cc(I)c(=O)[nH]c2=O)C[C@@H]1O | plaque count | BHK | EC50 |  | >1 µM
CCCCCc1ccc(-c2cc3cn(CC=C(CO)CO)c(=O)nc3o2)cc1 | plaque count | VERO | EC90 | F | 46.2 µM
CCSC(=O)NC[C@H]1O[C@@H](n2cc(I)c(=O)[nH]c2=O)C[C@@H]1O | plaque count | BHK | EC50 |  | >0.2 µM
CCOC(=O)P(=O)(OC)OC[C@H]1O[C@@H](n2cc(CCCl)c(=O)[nH]c2=O)C[C@@H]1O | cytopathic effect | VERO | EC50 | TK- | >68.1 µM
Cn1cc(NC(=O)c2cc(NC(=O)CN=C(N)N)cn2C)c(C(=O)NCCC(=N)N)c1 | cytopathic effect | PRK | EC50 | KOS | ≥40 µg/mL
CC(=O)c1cn(C/C=C/C(O)CO)c(=O)[nH]c1=O | plaque count | VERO | EC50 | F | 100 µM
Cc1cccc2c1OP(=O)(OC[C@H]1O[C@@H](n3cc(/C=C/Br)c(=O)[nH]c3=O)C[C@@H]1OC(=O)C(C)(C)C)OC2 | plaque count | VERO | EC50 | B2006 (TK-) | >128 µg/mL
O=C(O)C[C@@H]1C(=O)O[C@H]2[C@@H]3OC(=O)c4cc(O)c(O)c(O)c4-c4c(cc(O)c(O)c4O)C(=O)OC[C@H]2O[C@@H](OC(=O)c2cc(O)c(O)c(O)c2)[C@@H]3OC(=O)c2cc(O)c(O)c3c2[C@H]1[C@H](O)C(=O)O3 | plaque count | A549 | EC50 |  | 17.02 µM
Nc1nc2c(nnn2C[C@H]2CC[C@@H](CO)C2)c(=O)[nH]1 | cytopathic effect | E6SM | EC50 | VMW1837 (TK-) | >200 µg/mL
C/C=C/C=C/C1OC(O)(C(CC)C(=O)NC/C=C/C=C(\C)C(OC)C(C)C2OC(/C=C/C=C/C=C(\C)C(=O)c3c(O)ccn(C)c3=O)C(O)C2O)C(O)C(OC2OC(C)C(OC3OC(C)C(OC)C(O)C3OC)C(OC)C2O)C1(C)C | cytopathic effect | HeLa | EC50 | KOS | >200 µg/mL
C[C@@]12CC[C@]3(C1)C(CC2=O)C[C@@H](O)[C@H]1[C@](C)(C(=O)O)CCC[C@@]13C | plaque count | HeLa | EC50 | F | 254 µM
Cc1cccc2c1OP(=O)(OC[C@H]1O[C@@H](n3cc(/C=C/Br)c(=O)[nH]c3=O)C[C@@H]1OC(=O)[C@@H]1CCCN1)OC2 | plaque count | VERO | EC50 | B2006 (TK-) | >128 µg/mL
C[C@@]1(CO)[C@H](O)CC[C@@]2(C)[C@H]1CC[C@H]1C[C@@H]3C[C@@]12CC[C@]3(O)CO | plaque count | HeLa | EC50 | F | 0.24 µM
CC[C@H](C)[C@H](N)C(=O)O[C@H]1C[C@H](n2cc(/C=C/Br)c(=O)[nH]c2=O)O[C@@H]1COP1(=O)OCc2cccc(C)c2O1 | plaque count | VERO | EC50 | B2006 (TK-) | >128 µg/mL
Nc1ncnc2c1ncn2OCCOCP(=O)(O)O | cytopathic effect | MRC-5 | EC50 | SC16 | >300 µM
CCCCCc1ccc(-c2cc3cn(C/C=C/C(O)CO)c(=O)nc3o2)cc1 | plaque count | VERO | EC90 | F | >100 µM
CC(=O)O[C@@H]1CC2C[C@@H](O)[C@H]3[C@](C)(C(=O)O)CCC[C@]3(C)[C@]23CC[C@]1(C)C3 | plaque count | HeLa | EC50 | F | 146 µM
CNc1ncnc2c1ncn2[C@H]1O[C@@H](CO)C[C@H]1F |  | VERO | EC50 |  | >100 µM
CC(=O)O[C@@H]1CC2C[C@@H](OC(=O)c3ccccc3)[C@H]3[C@](C)(C(=O)O)CCC[C@]3(C)[C@]23CC[C@]1(C)C3 | plaque count | HeLa | EC50 | F | 8.6 µM
O=C(O)[C@H]1O[C@@H](Oc2cccc3cccnc23)[C@H](O)[C@@H](O)[C@@H]1O | cytopathic effect | HeLa | EC50 | KOS | >200 µg/mL
C[C@@]12CC[C@]3(C1)C(CC(=O)[C@H]1[C@](C)(C(=O)O)CCC[C@@]13C)CC2=O | plaque count | HeLa | EC50 | F | 22.6 µM
O=C1CC(=O)N([C@@H]2O[C@H](CO)[C@@H](O)[C@H]2O)C(=O)N1 | cytopathic effect | HeLa | EC50 | KOS | >200 µg/mL
CCC(=O)O[C@H]1C[C@H](n2cc(/C=C/Br)c(=O)[nH]c2=O)O[C@@H]1COP1(=O)OCc2cccc(C)c2O1 | plaque count | VERO | EC50 | KUPKA (TK+) | 1.57 µg/mL
Nc1nc(=O)n([C@H]2O[C@@H](CO)C[C@H]2F)cc1Cl |  | VERO | EC50 |  | >100 µM
Cc1cccc2c1OP(=O)(OC[C@H]1O[C@@H](n3cc(/C=C/Br)c(=O)[nH]c3=O)C[C@@H]1OC(=O)[C@@H](N)C(C)C)OC2 | plaque count | VERO | EC50 | KUPKA (TK+) | 0.45 µg/mL
CCc1cn([C@H]2C[C@H](O)[C@@H](CO)S2)c(=O)[nH]c1=O | cytopathic effect | VERO | EC50 | L2 acyclovir-susceptible | 1.1 µM

The first 4 rows once more:

| compound | read by | cells | read-out | strain | result |
|---|---|---|---|---|---|
| CC(=O)NC[C@H]1O[C@@H](n2cc(I)c(=O)[nH]c2=O)C[C@@H]1O | plaque count | BHK | EC50 |  | >11 µM |
| O=C(O)CP(=O)(O)OC[C@H]1O[C@@H](n2cc(CCCl)c(=O)[nH]c2=O)C[C@@H]1O | cytopathic effect | VERO | EC50 | TK- | >23.2 µM |
| Nc1nc(N)c2ncn(CC/C=C/P(=O)(O)O)c2n1 | cytopathic effect | MRC-5 | EC50 | SC16 | >300 µM |
| O=c1[nH]c(=O)n(COCCO)cc1C#Cc1ccccc1 | plaque count | VERO | EC90 | F | >100 µM |